In patent US5874287, “Mutagenized DNA molecules encoding modified subunit a of Cholera-toxin” (dated 1999):

Target: G protein alpha subunit of human erythrocyte membranes (human) (UniProt P63092)
Details: scale: relative specific activity

**Q.** For “Commercial CTXA1 (native cholera toxin subunit A1) (enzyme)”, which SPECIFIC ACTIVITY FOR HEM G. PROTEIN (ADP-ribosyltransferase, relative) is on record?
**A.** 1
